{"source": "patent US6362165B1", "about": "“Hydroxyphenyl derivatives with HIV integrase inhibitory properties” (Pharmacor Inc., priority 1999, dated 2002)", "target": "HIV-1 integrase (Human immunodeficiency virus type 1 group M subtype B, UniProt P04585)", "assay": "HIV-1 integrase inhibition assay (procedure of Burke et al.; radiolabeled duplex substrate, U5 end of HIV LTR)", "conditions": "read-out: Anti-integrase activity (IC50) 3,4-dihydroxy derivative; Table 1; 3,4-dihydroxy derivative of the root amino acid, formula Ic", "description": "For the purposes of Table 1 (and Table 2) the HIV-1 integrase inhibition assay was carried out following a known procedure (Burke, Jr. T. R. et al., J. Med. Chem. 38, 4171-4178 (1995)). A suitable radiolabeled duplex substrate corresponding to the U5 end of the HIV LTR was used.", "data": [{"smiles": "O=C(N[C@H](Cc1ccc(OCc2ccccc2)cc1)C(=O)NCCc1ccc(O)c(O)c1)c1ccc(O)c(O)c1", "values": [{"measurement": "IC50", "value": 42, "unit": "µM"}]}]}
